Pooled drug test results. Numbers come from NIAID ChemDB, via PubChem.

All rows: tests in culture; agent: Candida albicans; measure: MIC

Rows are shuffled and stem from different studies. Blank or dashed fields: not listed here.

O=C1C(Nc2ccc(F)cc2)=C(Cl)C(=O)c2c(O)cccc21 ; value: 16 µg/mL
C[C@H](CCC(=O)NCCNCCNC(=O)CC[C@@H](C)[C@H]1CCC2C3CCC4C[C@H](O)CC[C@]4(C)C3C[C@H](C)[C@@]21O)[C@H]1CCC2C3CCC4C[C@H](O)CC[C@]4(C)C3C[C@H](C)[C@@]21O ; strain or isolate: Isolate 3 ; value: 0.012 µM
CC1=C(N2CCC3CNCC32)C(F)=CN2C(=O)C(C(=O)O)=CC(C3CC3)C12 ; strain or isolate: CCH442 ; value: >100 µg/mL
C=CC[C@@H]1/C=C(/C)C[C@H](C)C[C@H](OC)[C@H]2O[C@@](O)(C(=O)C(=O)N3CCCC[C@H]3C(=O)O[C@H](/C(C)=C/[C@@H]3CC[C@@H](O)[C@H](OC)C3)[C@H](C)[C@@H](O)CC1=O)[C@H](C)C[C@@H]2OC ; strain or isolate: YAG171 (genotype RBP1/RBP1) ; value: >3.12 µg/mL
O=C(/C=C/c1ccc(Cl)cc1Cl)c1ccc(Cl)cc1Cl ; strain or isolate: ATCC 10231 ; value: >50 µg/mL
CCC[C@H](N)[C@@H]1CCN(c2c(F)cn3c(=O)c(C(=O)O)cc(C4CC4)c3c2C)C1.Cl ; strain or isolate: CCH442 ; value: 6.2 µg/mL
COc1cc(Cc2cnc(N)nc2N)cc(OC)c1OCCCNc1ccc(S(=O)(=O)c2ccc(N)cc2)cc1 ; strain or isolate: YEM27 (quadruple deletion) ; value: >64 µg/mL
Cc1c(N2C[C@@H]3CCN[C@@H]3C2)c(F)cn2c(=O)c(C(=O)O)cc(C3CC3)c12 ; strain or isolate: CCH442 ; value: 3.1 µg/mL
O=C(/C=C/c1cc2ccccc2nc1Cl)c1ccccc1 ; strain or isolate: ATCC 10231 ; value: >50 µg/mL
O=C1C=CC(=O)c2c(O)cccc21 ; value: 16 µg/mL
CCC(C)CC(C)CCCCCCCCC(=O)N[C@H]1C[C@@H](O)[C@@H](O)NC(=O)[C@@H]2[C@@H](O)CCN2C(=O)[C@H]([C@H](O)CC(N)=O)NC(=O)[C@H]([C@H](O)[C@@H](O)c2ccc(O)cc2)NC(=O)[C@@H]2C[C@@H](O)CN2C(=O)[C@H]([C@@H](C)O)NC1=O ; value: <0.01 µg/mL
C[C@@H](c1nc(-c2ccc(C#N)cc2)cs1)[C@](O)(Cn1cnnc1)c1ccc(F)cc1F ; strain or isolate: Isogenic isolate 17 CDR ; value: 1 µg/mL
COc1cc(O)c2c(c1)C(=O)c1c(cc3c(c1O)-c1c(cc(C)c(C(=O)N[C@H](CO)C(=O)O)c1O)[C@H](O[C@@H]1O[C@H](C)[C@H](O)[C@H](O)[C@H]1O)[C@H]3O)C2=O ; strain or isolate: ATCC 38247 ; value: 3.1 µg/mL
COc1cccc(/C=C/C(=O)c2ccc(Br)cc2)c1OC ; strain or isolate: ATCC 10231 ; value: >50 µg/mL
COc1cc(OC)cc(N2C3CCC2CC(c2cnc(N)nc2N)C3)c1 ; strain or isolate: YEM 12 (WT) ; value: 16 µg/mL
CNC1C(C)OC(O[C@H]2c3cc(C)c(C(=O)NC(C)C(=O)OC)c(O)c3-c3c(cc4c(c3O)C(=O)c3cc(OC)cc(O)c3C4=O)[C@@H]2O)C(O)C1OC1OC(CO)C(O)C1O ; strain or isolate: A9540 ; value: 50 µg/mL
COC[C@@H](N)[C@@H]1CCN(c2c(F)cn3c(=O)c(C(=O)O)cc(C4CC4)c3c2C)C1.Cl ; strain or isolate: CCH442 ; value: 100 µg/mL
COc1cccc2c1C(=O)C(Sc1ccc(Cl)cc1)=CC2=O ; value: 2 µg/mL
CC(C)=CCC/C(C)=C/CC/C(C)=C/CC[C@@]1(C)[C@H](CCCO)/C(=C(/C)C=O)CC[C@]1(C)O ; strain or isolate: 1066 ; value: >50 µg/mL
CC1=C(N2C[C@H]3CCCN[C@H]3C2)C(F)=CN2C(=O)C(C(=O)O)=CC(C3CC3)C12 ; strain or isolate: CCH442 ; value: >100 µg/mL
COc1cc(O)c2c(c1)C(=O)c1c(cc3c(c1O)-c1c(cc(C)c(C(=O)NC(C)C(=O)O)c1O)[C@H](OC1OC(C)C(F)C(O)C1O)[C@H]3O)C2=O ; strain or isolate: A9540 ; value: 6.3 µg/mL
COc1ccc(/C=C/C(=O)c2ccccc2)cc1 ; strain or isolate: ATCC 10231 ; value: >50 µg/mL
CC(=O)N1CCN(c2ccc(OC[C@H]3CO[C@](Cn4ccnc4)(c4ccc(Cl)cc4Cl)O3)cc2)CC1 ; strain or isolate: ATCC 90028 ; value: 0.25 µg/mL
Cc1c(N2CC(CN)C2)c(F)cn2c(=O)c(C(=O)O)cc(C3CC3)c12 ; strain or isolate: CCH442 ; value: >100 µg/mL
OC(Cn1cncn1)(Cn1cncn1)c1ccc(F)cc1F ; strain or isolate: ATCC 24433 ; value: 0.5 µg/mL
Cc1ccc(SC2=C(Sc3ccc(C)cc3)C(=O)c3c(O)cccc3C2=O)cc1 ; value: 32 µg/mL
CN(C/C=C/C#CC(C)(C)C)Cc1cccc2ccccc12 ; strain or isolate: ATCC 90028 ; value: 1 µg/mL
COc1cc(O)c2c(c1)C(=O)c1c(cc3c(c1O)-c1c(cc(C)c(C(=O)NC(C)C(=O)O)c1O)[C@H](OC1OC(CO)C(O)C(O)C1O)[C@H]3O)C2=O ; strain or isolate: A9540 ; value: >100 µg/mL
Cc1c(N2C[C@@H](N)[C@@H](C)C2)c(F)cn2c(=O)c(C(=O)O)cc(C3CC3)c12 ; strain or isolate: CCH442 ; value: 1.56 µg/mL
COc1cc(O)c2c(c1)C(=O)c1c(cc3c(c1O)-c1c(cc(C)c(C(=O)NC(C)C(=O)O)c1O)[C@H](OC1OC(C)C(N(C)C)C(OC(CO)OCCO)C1O)[C@H]3O)C2=O ; strain or isolate: A9540 ; value: 6.3 µg/mL
CNC1CN(c2c(F)cn3c(=O)c(C(=O)O)cc(C4CC4)c3c2C)CC1O.Cl ; strain or isolate: CCH442 ; value: >100 µg/mL
O=C1C(Sc2ccccc2)=CC(=O)c2c(O)cccc21 ; value: 4 µg/mL
Cc1c(N2CC3CCC(N)C3C2)c(F)cn2c(=O)c(C(=O)O)cc(C3CC3)c12.Cl ; strain or isolate: CCH442 ; value: >100 µg/mL
COc1cccc2c1C(=O)C(Sc1cccc(F)c1)=CC2=O ; value: 16 µg/mL

Repeating the final 2 entries:

compound,strain or isolate,value
Cc1c(N2CC3CCC(N)C3C2)c(F)cn2c(=O)c(C(=O)O)cc(C3CC3)c12.Cl,CCH442,>100 µg/mL
COc1cccc2c1C(=O)C(Sc1cccc(F)c1)=CC2=O,,16 µg/mL